Measurements reported in PubChem BioAssay AID1259414 (Drosophila RNAi Screening Center, 2018).
In all, the deposit lists about 24,000 reagents; shown is an unselected part of those that have a named target and a result. Over the whole deposit, about 1,210 (5%) are marked active. 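Inactive calls also include excluded dsRNAs with several or no targets, genes unexpressed in JW18, and well A1, regardless of score.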 A number with no mark means an inactive call. A plus sign joins genes that one reagent is predicted to hit.

Purpose: 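Host factors increasing or decreasing Wolbachia levels in cultured fly cells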 (primary screen)
Cells: Drosophila JW18 cells infected with Wolbachia
Reagents: long dsRNA against Drosophila genes, 0.25 µg dsRNA per well of a 384-well plate
Timing: 5 days
Conditions: cells persistently infected with Wolbachia before knock-down; no added drug
Read-out: 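Imaged fluorescence in situ signal for Wolbachia 23S rRNA per DAPI-counted host cell, given as a robust z-score within each plate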
Direction: Wolbachia per cell robust z: higher = more Wolbachia per host cell than the plate typical
Hit rule: 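Hit when robust z is 1.5 or more, or -1.5 or less, in at least two of three replicates; excludes dsRNAs with several or no targets, genes not expressed in JW18 and well A1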

no.	gene	DRSC id	Wolbachia per cell robust z, rep 1	Wolbachia per cell robust z, rep 2	Wolbachia per cell robust z, rep 3
1	bib (big brain)	DRSC03496	-1.16	0.926	-2.2
2	her (hermaphrodite)	DRSC03543	-7.24 (active)	-0.227	-3.59
3	Gmer (GDP-4-keto-6-deoxy-D-mannose 3,5-epimerase/4-reductase)	DRSC04376	0.384	0.835	0.634
4	Gmer (GDP-4-keto-6-deoxy-D-mannose 3,5-epimerase/4-reductase)	DRSC28925	0.337	0.827	0.849
5	Gsc (Goosecoid)	DRSC00755	0.408	0.43	-0.944
6	Gsc (Goosecoid)	DRSC25752	0.427	0.0577	0.429
7	Ciz1 (Ciz1 zinc finger protein)	DRSC09675	0.453	0.723	0.895
8	Ciz1 (Ciz1 zinc finger protein)	DRSC25065	1.94 (active)	0.0965	1.74
9	CG33639	DRSC19966	-3.48	-0.00258	-3.58
10	CG33639	DRSC22820	-0.263	0.0228	-0.527
11	CG33639	DRSC23778	0.904	0.217	0.428
12	CG12898	DRSC06213	-1.51	-2.12	-3.91
13	CG33969	DRSC11777	1.34	0.111	-0.83
14	rtv + Lint-1	DRSC19541	-1.43	0.594	-0.498
15	Ankle2	DRSC20105	1.37	-0.0274	-8.69
16	Ankle2	DRSC20106	0.482	-0.602	-0.247
17	ds (dachsous)	DRSC00815	-0.887	0.64	1.45
18	Akh (Adipokinetic hormone)	DRSC08138	-0.641	-1.01	-1.28
19	Akh (Adipokinetic hormone)	DRSC28433	-0.536	0.0419	-0.3
20	CG17819	DRSC15279	-0.106	-1.43	1.16
21	CG9689	DRSC18440	0.488	0.0906	-1.72
22	CG9689	DRSC28305	-0.102	0.594	-1.9
23	CG2225	DRSC03722	-3.86	0.964	0.152
24	CG2225	DRSC03723	0.468	0.608	-0.0121
25	CG7560	DRSC10879	-0.298	0.703	1.57
26	Sytalpha (Synaptotagmin alpha)	DRSC02869	-1.23	-0.125	0.331
27	CG7829	DRSC16322	0.27	-0.621	0.237
28	CG7829	DRSC28615	0.79	-0.338	-0.31
29	Ipo9 (Importin 9)	DRSC16813	0.526	-0.228	0.82
30	sut2 (sugar transporter 2)	DRSC07701	-0.311	0.784	0.604
31	CG12224	DRSC14480	0.945	-0.675	0.922
32	Csl4	DRSC02944	-0.298	-0.233	0.587
33	Csl4	DRSC22664	-3.25	-0.649	0.0865
34	CG13216	DRSC06338	0.729	0.354	-3.45
35	mus201 + Chrac-14	DRSC03568	-1	-0.566	0.422
36	hppy (happyhour)	DRSC07014	-1.14	-1.09	0.639
37	hppy (happyhour)	DRSC07015	-1.23	-3.01	-0.906
38	hppy (happyhour)	DRSC07016	0.319	0.149	-1.34
39	hppy (happyhour)	DRSC28168	1.22	0.435	1.16
40	Dci (Dodecenoyl-CoA delta-isomerase)	DRSC08360	0.69	-0.763	-0.529
41	Dci (Dodecenoyl-CoA delta-isomerase)	DRSC28929	1.09	0.416	0.258
42	CG1138	DRSC12530	-7.83	-1.29	-1.72
43	RabX1	DRSC04678	0.0669	-0.519	-2.29
44	CG11444	DRSC17784	-0.206	-0.197	-0.792
45	CG11444	DRSC24827	-1.13	-0.199	-13.8
46	mRpS29 (mitochondrial ribosomal protein S29)	DRSC04398	-0.0587	0.41	-0.093
47	mRpS29 (mitochondrial ribosomal protein S29)	DRSC27790	-2.43	-1.07	-0.568

Not a retest: entries from further up.
no.	gene	DRSC id	Wolbachia per cell robust z, rep 1	Wolbachia per cell robust z, rep 2	Wolbachia per cell robust z, rep 3
13	CG33969	DRSC11777	1.34	0.111	-0.83
14	rtv + Lint-1	DRSC19541	-1.43	0.594	-0.498
15	Ankle2	DRSC20105	1.37	-0.0274	-8.69
